Experimental findings from publication PMC9958325 (Nature Communications, 2023) are described below.

Several values for one entry are separate records, joined by “and”; a condition that tells them apart may be missing. Equal values may be shown once.

Test [1] concerns SARS-CoV-2NC928-2N^Omicron_BA.1. Nature of the test: Antiviral efficacy in hACE2 knock-in mice, Omicron BA.1, lung virus titers. The settings on record: NC928-2N/Omicron_BA.1, sampling day3, group average of 5 mice.
A further test concerns SARS-CoV-2UW-5250^Delta. The test can be described thus: Antiviral efficacy in hACE2 knock-in mice, Delta, lung virus titers. Conditions: UW-5250/Delat.
Test [2] has as its system SARS-CoV-2 Delta, BA.1 and BA.2 variants. Nature of the test: Antiviral efficacy in hACE2 knock-in mice, variants and days pooled (repeated ANOVA). The settings on record: log-transformed titers; days and mutant strains fixed effects, individuals random effect; 95%CI.
Test [3] concerns SARS-CoV-2NCD1288^Omicron_BA.2. Nature of the test: Antiviral efficacy in hACE2 knock-in mice, Omicron BA.2, lung virus titers.

In the case of `CC(C)(C)[C@H](NC(=O)C(F)(F)F)C(=O)N1C[C@H]2[C@@H]([C@H]1C(=O)N[C@@H](C[C@@H]1CCNC1=O)C(=O)c1nc3c(F)cccc3s1)C2(C)C` [TKB245], the “lung virus titer, ave of log pfu/g” value in test [1] stood at 3.547 log pfu/g; in the test with SARS-CoV-2UW-5250^Delta (sampling day2, group average of 5 mice), 6.24 log pfu/g; in the test on SARS-CoV-2UW-5250^Delta (sampling day3, group average of 5 mice) it was 6.888 log pfu/g. In addition, the “Virus titer compared to the no-drug control (repeated ANOVA)” value in test [2] was -1.34 and -1.34 (95%CI: -1.85, -0.82).
Regarding `CC(C)(C)[C@H](NC(=O)C(F)(F)F)C(=O)N1C[C@H]2[C@@H]([C@H]1C(=S)N[C@@H](C[C@@H]1CCNC1=O)C(=O)c1nc3c(F)cccc3s1)C2(C)C` [TKB248], the “lung virus titer, ave of log pfu/g” value in test [3] (NCD1288/Omicron_BA.2, sampling day2, group average of 5 mice) amounted to 5.5725 log pfu/g; in test [3] (NCD1288/Omicron_BA.2, sampling day3, group average of 5 mice), 4.9348 log pfu/g. The “Virus titer compared to the no-drug control (repeated ANOVA)” value in test [2] is -1.01 and -1.01 (95%CI: -1.41, -0.60).
